Some compounds may have been tested in ways that are not shown here.
The compounds below were run on H37Rv (assay: Inhibition of Mycobacterium colony growth in THP1 macrophages (CFU counts)). Settings: PMA-differentiated THP-1, MOI 10, CFU at 90 hr.
Type: cell-based, M. tuberculosis

First: CC(=O)N1CCCC(OC(=O)C(O)(c2ccccc2)c2ccccc2)C1 (centres unmarked)
Second: CN(C)C(=O)N1CCCC(OC(=O)C(O)(c2ccccc2)c2ccccc2)C1 (centres unmarked)
The “H37Rv % Inhibition at 500 nM” value of the first is higher: 73% for the first, 66% for the second.

Compared with `O=C(O[C@@H]1CN2CCC1CC2)[C@@H](O)c1ccccc1`, `O=C(OC1CN2CCC1CC2)[C@@H](O)c1ccccc1` (some centres unmarked) is higher in “H37Rv % Inhibition at 500 nM” value: 42% for the first, 56% for the second.

Going from `CN1CCC(OC(=O)C(O)(c2ccccc2)c2ccccc2)C1` (centres unmarked) to `CN1CCC(OC(=O)C(O)(c2ccccc2)c2ccccc2)CC1`, the “H37Rv % Inhibition at 500 nM” value falls from 66% to 55%.

Compared with `O=C(OC1CN(Cc2ccccc2)C1)C(O)(c1ccccc1)c1ccccc1`, `O=C(OC1CCCN(Cc2ccccc2)C1)C(O)(c1ccccc1)c1ccccc1` (centres unmarked) is lower in “H37Rv % Inhibition at 500 nM” value: 77% for the first, 33% for the second.

First: O=C(OC1CCCNC1)C(O)(c1ccccc1)c1ccccc1 (centres unmarked)
Second: O=C(OC1CNC1)C(O)(c1ccccc1)c1ccccc1
The “H37Rv % Inhibition at 500 nM” value of the first is lower: 22% for the first, 50% for the second.

With `CCCN1CCCC(OC(=O)C(O)(c2ccccc2)c2ccccc2)C1` (centres unmarked) the “H37Rv % Inhibition at 500 nM” value was 51%.
